# Reference: PubChem BioAssay AID1259414 (Drosophila RNAi Screening Center, 2018)
# Purpose: 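Host factors increasing or decreasing Wolbachia levels in cultured fly cells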 (primary screen)
# Cells: Drosophila JW18 cells infected with Wolbachia
# Reagents: long dsRNA against Drosophila genes, 0.25 µg dsRNA per well of a 384-well plate
# Duration: 5 days
# Challenge: cells persistently infected with Wolbachia before knock-down; no added drug
# Read-out: 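Imaged fluorescence in situ signal for Wolbachia 23S rRNA per DAPI-counted host cell, given as a robust z-score within each plate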
# Direction: Wolbachia per cell robust z: higher = more Wolbachia per host cell than the plate typical
# Call rule: 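Active if absolute robust z reaches 1.5 in two or more of three replicates, leaving out multi- or no-target dsRNAs, genes unexpressed in JW18 and A1 wells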
# The deposit covers about 24,000 reagents; below is a random part of those with a known target gene and a result. In the full data, about 1,210 (5%) were called active. 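Inactive calls also include excluded dsRNAs with several or no targets, genes unexpressed in JW18, and well A1, regardless of score.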 Entries without a mark were called inactive. Names joined by + are all predicted targets of the reagent.
gene,DRSC id,"Wolbachia per cell robust z, rep 1","Wolbachia per cell robust z, rep 2","Wolbachia per cell robust z, rep 3"
CG7110,DRSC03011,-0.837,-0.312,-0.464
CG7110,DRSC03012,0.748,0.781,0.871
CR41507 + CR41508 + CR41509 + 1 more,DRSC38658,-0.751,-1.03,-0.159
Obp50d,DRSC05483,0.453,0.99,1.24
Gem4c + Gem4b,DRSC17294,0.287,1.27,0.0301
sv,DRSC17221,1.09,1.07,0.241
sv,DRSC27256,-0.105,-0.587,-5.71
sv,DRSC40813,-1.01,-0.684,-1.59
IKKbeta,DRSC16714,-1.62,-0.422,-1.02
IKKbeta,DRSC40755,-0.499,-0.155,-2.14
Duba,DRSC10582,1.58,-7.33,0.724
alpha-PheRS,DRSC18224,0.0271,-0.426,-0.465
alpha-PheRS,DRSC24124,-0.63,-1.1,-0.825
CG14232 + CG14230,DRSC29188,-0.719,-0.103,0.0678
Obp50b + Obp50c,DRSC21818,-2.26,-1.46,-0.817
Spn31A,DRSC02780,-1.1,1.18,1.88
Spn31A,DRSC29198,0.214,-1.26,-0.635
ecd,DRSC08574,1.12,0.563,0.863
CG14454,DRSC11711,1.2,0.458,0.396
CG14454,DRSC23866,0.265,0.343,-0.568
CG3511,DRSC04382,-0.248,-0.564,-0.934
CG3511,DRSC28281,0.815,0.782,1.66
CG43254,DRSC40533,-0.947,0.211,-1.13
CG6962,DRSC16153,0.559,0.0703,0.673
CG6962,DRSC28894,0.4,0.371,0.553
phtf,DRSC05023,-5.27,0.573,0.548
phtf,DRSC28441,-1.88,-1.18,-0.573
CG5024,DRSC15698,0.555,0.701,-0.0448
CG2218,DRSC15428,-0.858,-0.734,0.713
CG2218,DRSC28089,2.32,0.0647,0.932
CG34443,DRSC29357,2,0.688,1.55
GILT1,DRSC16565,0.576,-0.468,0.291
CG2975,DRSC37907,1.26,1.31,1.29
CG6678,DRSC16092,-0.85,0.181,1.15
CG6678,DRSC27398,-0.222,-0.62,-1.16
CG43192,DRSC40542,-0.174,0.5,-0.421
Coq8,DRSC19900,1.02,0.414,-0.363
CG2972,DRSC18250,2.2,-0.546,-1.61
CG2972,DRSC30013,0.338,-0.154,-1.36
bel,DRSC16555,0.511,0.0331,1.77
bel,DRSC25066,1.79 (active),1.43,3.06
Rab9Fb,DRSC19854,0.0829,0.482,-4.49
CG4836,DRSC15659,-0.118,0.576,-7.16
CG4836,DRSC22066,0.336,0.56,0.316
CG4836,DRSC24789,-0.908,-0.405,-0.754
Cyp9b2,DRSC07390,-0.844,0.368,-4.89
Cyp9b2,DRSC24835,1.15,-0.1,-0.0211

Reagents above called active:
gene,DRSC id,"Wolbachia per cell robust z, rep 1","Wolbachia per cell robust z, rep 2","Wolbachia per cell robust z, rep 3"
bel,DRSC25066,1.79 (active),1.43,3.06
